Measured values from several laboratories, pooled; numbers as filed in NIAID ChemDB.

Common to all: growth or infection tests; species: Hepatitis C virus; measure: EC50

ECn is the concentration giving n% inhibition of infection, replication or growth. Blank or dashed fields: not listed here. Rows are shuffled and stem from different studies. Two numbers with a dash give a range or band.

{"SMILES": "COC(=O)N[C@@H](C(=O)N[C@@H](C)c1ncc(-c2ccc(-c3ccc(-c4cnc([C@@H]5CCCN5C(=O)[C@H](NC(=O)OC)c5ccccc5)[nH]4)cc3)nc2)[nH]1)c1ccccc1", "strain or isolate": "1b", "result": "0.00001–0.000999 µM"}
{"SMILES": "CCOc1nc(NCc2ccc(S(N)(=O)=O)cc2)nc2ccc(-c3ccc(N4CC(O)CC4=O)cc3)nc12", "method": "replicon", "result": "<0.1 µM"}
{"SMILES": "CC1(C)CC(=O)C2=C(C1)Nc1c(O)cccc1NC2c1ccc(S(C)(=O)=O)cc1Cl", "strain or isolate": "1b", "method": "luciferase / reporter gene / replicon", "result": "90.56 µM"}
{"SMILES": "CC1(C)COc2c1ccc1c2c(-c2ccc[nH]c2=O)c(C(=O)O)n1Cc1cc2ccccc2nc1Cl", "method": "replicon", "result": "<0.5 µM"}
{"SMILES": "CC1CCC(C(=O)N(c2cc(-c3ccc(NC(=O)c4cscn4)cc3)sc2C(=O)[O-])C(C)C)CC1.C[N+](C)(C)CCO", "strain or isolate": "1a", "method": "replicon", "result": "<0.5 µM"}
{"SMILES": "CC(C)(c1ccc(F)cc1)c1nc(-c2cn(Cc3ccc(C(F)(F)F)cc3)c3cc(N4CCOCC4)c(F)cc3c2=O)no1", "strain or isolate": "1b", "method": "replicon", "result": "<0.5 µM"}
{"SMILES": "CCOc1nc(NCc2ccc(S(N)(=O)=O)cc2)nc2ccc(-c3ccc(NC(=O)OCCN4CCCC4)cc3)nc12", "method": "replicon", "result": "<0.1 µM"}
{"SMILES": "CCCCCOc1ccc(N(C(=O)C(N)=O)c2nc(-c3cccnc3)cs2)cc1C(F)(F)F", "result": "<1 µM"}
{"SMILES": "COc1nc(N)nc2c1ncn2[C@@H]1O[C@H](COP(=O)(N[C@@H](C)C(=O)OC(C)C)Oc2ccccc2)[C@@H](O)[C@@]1(C)F", "strain or isolate": "2a", "method": "replicon", "setting": "45 d", "result": "0.091 µM"}
{"SMILES": "NC(=O)c1cnc(F)c(Cn2c(C(=O)NS(=O)(=O)C3CC3)c(-c3ccc[nH]c3=O)c3c4c(c(F)cc32)CCO4)c1", "method": "replicon", "result": "<0.5 µM"}
{"SMILES": "Cc1cccc(C)c1-c1cc(-c2cccc(NC(=O)C(Cl)Cl)c2)on1", "method": "replicon", "result": "≤10 µM"}
{"SMILES": "CN1CCN(c2cc3c(cc2F)c(=O)c(-c2noc(Cc4ccccc4)n2)cn3Cc2c(F)cccc2F)CC1", "strain or isolate": "1b", "method": "replicon", "result": "<10 µM"}
{"SMILES": "CC(C)c1cccc(C(C)C)c1-c1cc(-c2cccc(NC(=O)C(Cl)Cl)c2)on1", "method": "replicon", "result": "≤10 µM"}
{"SMILES": "CN(C)[C@@H](C(=O)N1CCC[C@@H]1c1ncc(-c2ccc(-c3ccc(-c4cnc([C@H]5CCCN5C(=O)[C@@H](c5ccccc5)N(C)C)[nH]4)nn3)cc2)[nH]1)c1ccccc1", "strain or isolate": "1b", "result": "0.001–0.099 µM"}
{"SMILES": "CC1(C)CC(=O)C2=C(C1)Nc1c(O)cccc1N(C(=O)c1csc(-c3ccccc3)n1)C2c1ccc(OCc2ccccc2)cc1F", "strain or isolate": "1b", "method": "luciferase / reporter gene / replicon", "result": "3.88 µM"}
{"SMILES": "O=C(Nc1cccc(-c2cc(-c3ccccc3OCc3ccccc3)no2)c1)C(Cl)Cl", "method": "replicon", "result": ">10 µM"}
{"SMILES": "NC(=O)c1cnc(F)c(Cn2c(C(=O)O)c(-c3ccc[nH]c3=O)c3c4occc4c(F)cc32)c1", "method": "replicon", "result": "<0.5 µM"}
{"SMILES": "CN(C)[C@@H](C(=O)N1CCC[C@@H]1c1ncc(-c2ccc(-c3ncc(-c4cnc([C@H]5CCCN5C(=O)[C@@H](c5ccccc5)N(C)C)[nH]4)cn3)cc2)[nH]1)c1ccccc1", "strain or isolate": "1b", "result": "0.001–0.099 µM"}
{"SMILES": "CCCCCOc1ccc(N(C(=O)C2CC2)c2nc(-c3cccnc3)cs2)cc1C(F)(F)F", "result": "<1 µM"}
{"SMILES": "CC1CCC(C(=O)N(c2cc(-c3ccc(NC(=O)c4ncccc4F)cc3)sc2C(=O)O)C(C)C)CC1", "strain or isolate": "1b", "method": "replicon", "result": "<0.5 µM"}
{"SMILES": "CC(C)C(=O)N1c2cccc(O)c2NC2=C(C(=O)CC(C)(C)C2)C1c1ccc(NCc2ccccc2)nc1Cl", "strain or isolate": "1b", "method": "luciferase / reporter gene / replicon", "result": "15.04 µM"}
{"SMILES": "CCCCCOc1ccc(N(C(=O)C(=O)OC)c2nc(-c3cccnc3)cs2)cc1C(F)(F)F", "result": "<1 µM"}
{"SMILES": "COCCOCCOC(=O)N1c2cccc(O)c2NC2=C(C(=O)CC(C)(C)C2)C1c1ccc(OCc2ccccc2)cc1Cl", "strain or isolate": "1b", "method": "luciferase / reporter gene / replicon", "result": "4.47 µM"}
{"SMILES": "CN1CCN(c2cc3c(cc2F)c(=O)c(-c2noc(CC4CC4)n2)cn3CC2CCCCC2)CC1", "strain or isolate": "1b", "method": "replicon", "result": "<10 µM"}
{"SMILES": "CC1CCC(C(=O)N(c2cc(-c3ccc(NC(=O)c4ccc(F)cc4)nc3)sc2C(=O)O)C(C)C)CC1", "strain or isolate": "1a", "method": "replicon", "result": "<0.5 µM"}
{"SMILES": "CC1(C)CC(=O)C2=C(C1)Nc1c(O)cccc1N(C(=O)c1nccnc1N)[C@H]2c1ccc(OCc2ccccc2)cc1F", "strain or isolate": "1b", "method": "luciferase / reporter gene / replicon", "result": "0.84 µM"}
{"SMILES": "CC(C)N(C(=O)c1ccc(Cl)cc1F)c1cc(-c2ccc(-c3cn4ccccc4n3)cc2)sc1C(=O)O", "strain or isolate": "1b", "method": "replicon / ELISA", "result": "0.1–0.5 µM"}
{"SMILES": "CCOc1nc(NCc2ccc(F)cc2)nc2ccc(-c3ccc(NC(=O)CN)cc3)nc12", "method": "replicon", "result": "<0.1 µM"}
{"SMILES": "Cc1ccc(C(=O)Nc2ccc(-c3cc(N(C(=O)C4CCC(C)CC4)C(C)C)c(C(=O)O)s3)cc2)o1", "strain or isolate": "1a", "method": "replicon", "result": "<0.5 µM"}
{"SMILES": "CC(C)(c1ccccc1)c1noc(-c2cn(Cc3ccc(C(F)(F)F)cc3)c3cc(N4CCOCC4)c(F)cc3c2=O)n1", "strain or isolate": "1b", "method": "replicon", "result": ">10 µM"}
{"SMILES": "Cc1cccc(Cl)c1-c1cc(-c2cccc(NC(=O)C(Cl)Cl)c2)on1", "method": "replicon", "result": "≤10 µM"}
{"SMILES": "COc1cc2c(=O)c(-c3noc(Cc4ccccn4)n3)cn(Cc3ccc(Cl)cc3)c2cc1OC", "strain or isolate": "1b", "method": "replicon", "result": ">10 µM"}
{"SMILES": "CCCCCOc1ccc(N(C(N)=O)c2nc(-c3ccncc3)cs2)cc1F", "result": ">10 µM"}
{"SMILES": "Fc1ccc(CNc2nc(N[C@@H]3CCOC3)c3nc(-c4ccc(F)cc4)ccc3n2)cc1", "method": "replicon", "result": "<0.1 µM"}
{"SMILES": "CC1(C)CC(=O)C2=C(C1)Nc1c(O)cccc1N(C(=O)CCC(=O)O)[C@H]2c1ccc(OCc2ccccc2)cc1Cl", "strain or isolate": "1b", "method": "luciferase / reporter gene / replicon", "result": "52.82 µM"}
{"SMILES": "CCOc1nc(NCC(F)(F)F)nc2ccc(-c3ccc(F)cc3)nc12", "method": "replicon", "result": "<0.1 µM"}
{"SMILES": "COC(=O)N[C@@H](C)C(=O)N1CCC[C@@H]1C1=NCC(c2cnc(-c3ccc(-c4cnc([C@H]5CCCN5C(=O)[C@H](C)NC(=O)OC)[nH]4)c(F)c3)nc2)=N1", "strain or isolate": "1b", "result": "0.00001–0.000999 µM"}
{"SMILES": "Cc1ccc(-c2cc(-c3c(Cl)cccc3Cl)no2)cc1NC(=O)C(Cl)Cl", "method": "replicon", "result": ">10 µM"}
{"SMILES": "CS(=O)(=O)NC(=O)c1c(-c2ccc[nH]c2=O)c2c3ccccc3ccc2n1Cc1ccnc(N)c1", "method": "replicon", "result": ">10 µM"}
{"SMILES": "COC(=O)N[C@H](C(=O)N1CCC[C@H]1c1ncc(-c2ccc(-c3ccc(-c4cnc([C@@H]5CCCN5C(=O)[C@H](NC(=O)OC)c5ccccc5)[nH]4)cc3C)nc2)[nH]1)c1ccccc1", "strain or isolate": "1b", "result": "0.00001–0.000999 µM"}
{"SMILES": "Cc1cc(Br)ccc1C(=O)N(c1cc(-c2ccc(-c3cc4ncccn4n3)cc2)sc1C(=O)O)C(C)C", "strain or isolate": "1b", "method": "replicon / ELISA", "result": "0.1–0.5 µM"}
{"SMILES": "CC(C)(c1ccccc1)c1nc(-c2cn(Cc3ccc(C(F)(F)F)cc3)c3cc(N4CCSCC4)c(F)cc3c2=O)no1", "strain or isolate": "1b", "method": "replicon", "result": "<2 µM"}
{"SMILES": "CCCCCCCCOc1ccc(N(C(=O)NCC)c2nc(-c3cccnc3)cs2)cc1", "result": ">10 µM"}
{"SMILES": "O=C(O)c1c(-c2ccc[nH]c2=O)c2c3occc3c(F)cc2n1Cc1cc2[nH]cnc2cc1F", "method": "replicon", "result": "<0.5 µM"}
{"SMILES": "CCCCCOc1ccc(N(C(=O)C(=O)OC)c2nc(-c3ccc(F)cc3F)cs2)cc1C(F)(F)F", "result": "<1 µM"}
{"SMILES": "O=C([C@@H](O)c1ccccc1)N1CCC[C@H]1c1ncc(-c2ccc(-c3ccc(-c4cnc([C@@H]5CCCN5C(=O)[C@H](O)c5ccccc5)[nH]4)cn3)cc2)[nH]1", "strain or isolate": "1b", "result": "0.001–0.099 µM"}
{"SMILES": "CC(C)N(C(=O)c1ccc(Cl)cc1Cl)c1cc(-c2ccc(-c3cc4ncccn4n3)cc2)sc1C(=O)O", "strain or isolate": "1b", "method": "luciferase / replicon", "result": "0.01–0.05 µM"}
{"SMILES": "CO[C@H](C(=O)N1CCC[C@H]1c1ncc(-c2ccc(-c3ccc(-c4cnc([C@@H]5CCCN5C(=O)[C@H](OC)c5ccccc5)[nH]4)cn3)cc2)[nH]1)c1ccccc1", "strain or isolate": "1b", "result": "0.00001–0.000999 µM"}
{"SMILES": "CC1CCC(C(=O)N(c2cc(-c3ccc(NC(=O)c4ccc(F)cc4)cc3)sc2C(=O)O)C(C)C)CC1", "strain or isolate": "1a", "method": "replicon", "result": "<0.5 µM"}
{"SMILES": "CCCCCCCCOc1ccc(N(C(N)=O)c2nc(-c3cccnc3)cs2)cc1C(F)(F)F", "result": "<1 µM"}
{"SMILES": "CC(C)N(C(=O)c1ccc(Cl)cc1Cl)c1cc(-c2ccc(-c3cn4ccccc4n3)cc2)sc1C(=O)O", "strain or isolate": "1b", "method": "replicon / ELISA", "result": "0.05–0.1 µM"}
{"SMILES": "COC(=O)N[C@@H](C(=O)N1CCC[C@H]1c1ncc(-c2ccc(-c3ccc(-c4cnc([C@@H]5CCCN5C(=O)C5CCN(C)CC5)[nH]4)cn3)cc2)[nH]1)c1ccccc1", "strain or isolate": "1b", "result": "0.001–0.099 µM"}
{"SMILES": "CC(C)N(C(=O)c1ccc(Cl)cc1Cl)c1cc(-c2ccc(-c3nn[nH]n3)cc2)sc1C(=O)O", "strain or isolate": "1b", "method": "luciferase / replicon", "result": ">5 µM"}
{"SMILES": "Cc1cc(C(=O)N2c3cccc(O)c3NC3=C(C(=O)CC(C)(C)C3)[C@@H]2c2ccc(OCc3ccccc3)cc2F)no1", "strain or isolate": "1b", "method": "luciferase / reporter gene / replicon", "result": "0.87 µM"}
{"SMILES": "NC(=O)COc1ccc2c(c1)S(=O)(=O)N=C(c1c(O)c3cc(F)ccc3n(CCC3CC3)c1=O)N2", "strain or isolate": "1a 33776", "method": "replicon", "result": "0.061 µM"}
{"SMILES": "O=C(Nc1cccc(-c2cc(-c3ccccc3OC(F)F)no2)c1)C(Cl)Cl", "method": "replicon", "result": "≤10 µM"}
{"SMILES": "Cc1cccc(Cn2c(C(=O)NS(=O)(=O)C3CC3)c(-c3ccc[nH]c3=O)c3c4occc4ccc32)c1F", "method": "replicon", "result": "<0.5 µM"}
{"SMILES": "CC1(C)CC(=O)C2=C(C1)Nc1c(O)cccc1N(C(=O)OCCC(=O)O)C2c1ccc(OCc2ccccc2)cc1Cl", "strain or isolate": "1b", "method": "luciferase / reporter gene / replicon", "result": ">100 µM"}
{"SMILES": "O=C(Nc1cc(-c2cc(-c3c(Cl)cccc3Cl)no2)ccc1OCCN1CCOCC1)C(Cl)Cl", "method": "replicon", "result": ">10 µM"}

For reference, 7 entries again:

SMILES,strain or isolate,method,setting,result
COc1cc2c(=O)c(-c3noc(Cc4ccccn4)n3)cn(Cc3ccc(Cl)cc3)c2cc1OC,1b,replicon,,>10 µM
NC(=O)c1cnc(F)c(Cn2c(C(=O)NS(=O)(=O)C3CC3)c(-c3ccc[nH]c3=O)c3c4c(c(F)cc32)CCO4)c1,,replicon,,<0.5 µM
O=C([C@@H](O)c1ccccc1)N1CCC[C@H]1c1ncc(-c2ccc(-c3ccc(-c4cnc([C@@H]5CCCN5C(=O)[C@H](O)c5ccccc5)[nH]4)cn3)cc2)[nH]1,1b,,,0.001–0.099 µM
CC1(C)CC(=O)C2=C(C1)Nc1c(O)cccc1N(C(=O)CCC(=O)O)[C@H]2c1ccc(OCc2ccccc2)cc1Cl,1b,luciferase / reporter gene / replicon,,52.82 µM
CC(C)C(=O)N1c2cccc(O)c2NC2=C(C(=O)CC(C)(C)C2)C1c1ccc(NCc2ccccc2)nc1Cl,1b,luciferase / reporter gene / replicon,,15.04 µM
CS(=O)(=O)NC(=O)c1c(-c2ccc[nH]c2=O)c2c3ccccc3ccc2n1Cc1ccnc(N)c1,,replicon,,>10 µM
CC(C)(c1ccccc1)c1noc(-c2cn(Cc3ccc(C(F)(F)F)cc3)c3cc(N4CCOCC4)c(F)cc3c2=O)n1,1b,replicon,,>10 µM